Biological target: BNeV VLPs (rMA415; VP1-major capsid and VP2-minor capsid) (Newbury agent 1, UniProt Q288N7)
Assay: plate binding assay (ELISA), HRP-streptavidin, A450
Conditions: multivalent PAA-biotin conjugate of the glycan, 10 μg/ml; immobilised VLPs 50 μg/ml; labelled compound

The chains behind the UniProt entries cited, without tags or fusion partners. Where a name states a change or a piece, a line headed by the entry shows the natural chain unless it says otherwise.
UniProt Q288N7: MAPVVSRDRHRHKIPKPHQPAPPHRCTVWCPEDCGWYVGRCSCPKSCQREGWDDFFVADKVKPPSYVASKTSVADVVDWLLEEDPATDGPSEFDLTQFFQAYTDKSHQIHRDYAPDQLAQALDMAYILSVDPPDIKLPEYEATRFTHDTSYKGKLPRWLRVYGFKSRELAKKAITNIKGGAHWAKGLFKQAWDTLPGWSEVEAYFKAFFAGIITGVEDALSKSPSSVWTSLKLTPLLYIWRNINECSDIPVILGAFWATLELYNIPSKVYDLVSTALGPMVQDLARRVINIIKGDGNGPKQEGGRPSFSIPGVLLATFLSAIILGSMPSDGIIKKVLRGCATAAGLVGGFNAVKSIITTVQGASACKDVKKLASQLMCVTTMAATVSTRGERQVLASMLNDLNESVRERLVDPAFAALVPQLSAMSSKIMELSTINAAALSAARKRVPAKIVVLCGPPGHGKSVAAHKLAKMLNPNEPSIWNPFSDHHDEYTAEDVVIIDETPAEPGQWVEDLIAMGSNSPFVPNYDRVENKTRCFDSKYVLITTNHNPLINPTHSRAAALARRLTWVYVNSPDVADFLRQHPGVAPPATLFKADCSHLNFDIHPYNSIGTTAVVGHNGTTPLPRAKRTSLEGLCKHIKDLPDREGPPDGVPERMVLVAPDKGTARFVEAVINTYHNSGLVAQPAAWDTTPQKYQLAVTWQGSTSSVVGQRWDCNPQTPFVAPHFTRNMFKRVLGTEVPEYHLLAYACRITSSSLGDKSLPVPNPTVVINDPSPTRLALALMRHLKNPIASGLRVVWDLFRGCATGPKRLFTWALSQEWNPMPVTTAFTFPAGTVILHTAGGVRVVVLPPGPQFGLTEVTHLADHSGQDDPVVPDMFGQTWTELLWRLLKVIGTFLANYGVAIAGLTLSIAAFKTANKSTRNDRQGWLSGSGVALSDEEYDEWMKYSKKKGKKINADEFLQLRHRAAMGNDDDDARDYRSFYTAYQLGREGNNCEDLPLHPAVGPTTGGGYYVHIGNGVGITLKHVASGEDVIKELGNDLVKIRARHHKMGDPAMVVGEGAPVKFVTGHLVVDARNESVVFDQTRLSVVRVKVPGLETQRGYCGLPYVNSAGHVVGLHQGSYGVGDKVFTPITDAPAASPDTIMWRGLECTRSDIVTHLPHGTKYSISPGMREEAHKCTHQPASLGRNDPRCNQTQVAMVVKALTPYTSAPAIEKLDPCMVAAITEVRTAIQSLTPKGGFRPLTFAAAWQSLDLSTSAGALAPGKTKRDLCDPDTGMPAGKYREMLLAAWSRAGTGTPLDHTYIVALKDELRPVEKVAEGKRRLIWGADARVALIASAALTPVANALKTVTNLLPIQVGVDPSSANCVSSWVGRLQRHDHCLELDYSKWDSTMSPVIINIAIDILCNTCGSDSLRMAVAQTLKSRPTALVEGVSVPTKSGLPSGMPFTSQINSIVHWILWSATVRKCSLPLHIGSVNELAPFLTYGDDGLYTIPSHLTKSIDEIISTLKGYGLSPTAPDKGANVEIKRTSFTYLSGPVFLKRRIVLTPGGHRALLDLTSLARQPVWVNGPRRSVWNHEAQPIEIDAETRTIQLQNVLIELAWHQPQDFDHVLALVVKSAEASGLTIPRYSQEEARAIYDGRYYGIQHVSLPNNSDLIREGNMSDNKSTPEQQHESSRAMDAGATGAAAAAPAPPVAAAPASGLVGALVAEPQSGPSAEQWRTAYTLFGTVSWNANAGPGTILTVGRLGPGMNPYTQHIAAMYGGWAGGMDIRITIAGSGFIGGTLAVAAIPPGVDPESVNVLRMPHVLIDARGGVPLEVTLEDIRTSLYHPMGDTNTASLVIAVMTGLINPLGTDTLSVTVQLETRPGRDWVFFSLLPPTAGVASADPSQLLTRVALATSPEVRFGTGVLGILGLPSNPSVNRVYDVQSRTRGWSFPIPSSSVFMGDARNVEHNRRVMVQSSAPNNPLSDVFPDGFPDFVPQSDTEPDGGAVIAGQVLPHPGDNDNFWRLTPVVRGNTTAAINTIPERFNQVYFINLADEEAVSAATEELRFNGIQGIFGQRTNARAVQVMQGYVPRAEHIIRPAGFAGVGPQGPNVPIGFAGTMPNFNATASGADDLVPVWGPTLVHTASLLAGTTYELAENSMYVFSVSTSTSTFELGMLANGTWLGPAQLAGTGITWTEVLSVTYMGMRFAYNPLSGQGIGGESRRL

For CC(=O)N[C@H]1[C@H]([C@H](O)[C@H](O)CO)O[C@@](O[C@H]2[C@@H](O)[C@@H](CO)O[C@@H](O[C@H]3[C@H](O[C@@H]4O[C@@H](C)[C@@H](O)[C@@H](O)[C@@H]4O)[C@@H](NC(C)=O)C(O)O[C@@H]3CO)[C@@H]2O)(C(=O)O)C[C@@H]1O (stereo partly shown), which “plate binding assay (ELISA), HRP-streptavidin, A450” value is on record?
Its value is “sialyl-Le^a (SLe^a), Le^y, Le^x, αGal, H2, H1, SLe^x, A, and B type immobilized synthetic HBGA”.

Reference: publication PMC5899197 (Journal of Virology, 2018)
